Anti-infective test results gathered from many reports (values: NIAID ChemDB through PubChem).

Common to all: growth or infection tests

Neighbouring rows are from separate reports.

smiles | species | strain | method | conditions | measure | result
CC[C@H]1OC(=O)[C@H](C)[C@@H](O[C@H]2C[C@@](C)(OC)[C@@H](OC(C)=O)[C@H](C)O2)[C@H](C)[C@@H](O[C@@H]2O[C@H](C)C[C@H](N(C)C)[C@H]2O)C(C)(O)C[C@@H](C)/C(=N\OCCN(C)c2ccccc2)[C@H](C)[C@@H](O)[C@]1(C)O | Mycobacterium avium complex | 20096 (clarithromycin-resistant) | - | - | MIC | 12.5 µg/mL
CC(C)c1ccc(NC(=O)NNC(=O)c2ccncc2)cc1 | Mycobacterium kansasii | My 6509/96 | broth dilution | 21 d | MIC100 | 16 µM
Cc1ccn2c(C(=O)NCc3ccc(N4CCN(c5ccc(C(F)(F)F)cn5)CC4)c(F)c3)c(C)nc2c1 | Mycobacterium intracellulare | ATCC 13950 | resazurin | - | MIC | 0.03125 µg/mL
COc1c(NC(=O)c2ccc(NC(=O)c3c(F)cc(NC(=O)[C@H](Cc4cn[nH]n4)NC(=O)c4ccc(NC(=O)/C(C)=C/c5ccc(O)cc5)cc4)cc3F)c(OC)c2O)ccc(C(=O)O)c1O | Mycobacterium luteus | 130.21 | resazurin | - | MIC | 0.25 µg/mL
CCOc1ccc(-c2n[nH]c(C(F)(F)F)c2-c2ccc(OC)cc2)c(O)c1 | Mycobacterium marinum | - | visual reading | - | MIC | 50 µg/mL
CO[C@H]1/C=C/O[C@@]2(C)Oc3c(C)c(O)c4c(O)c(c5c(c4c3C2=O)NC2(CCN(CC(C)C)CC2)N=5)=NC(=O)/C(C)=C\C=C\[C@H](C)[C@H](O)[C@@H](C)[C@@H](O)[C@@H](C)[C@H](OC(C)=O)[C@@H]1C | Mycobacterium avium intracellulare | 15-Feb | - | - | MIC | 0.25 µg/mL
CCc1cn(C2OC(COC(C)=O)C(OC(C)=O)C2F)c(=O)[nH]c1=O | Mycobacterium bovis BCG | - | resazurin | - | MIC55 | 50 µg/mL
O=C(NNC(=O)c1ccncc1)Nc1ccc(Br)c(C(F)(F)F)c1 | Mycobacterium kansasii | My 235/80 | broth dilution | 14 d | MIC100 | >125 µM
CCc1cc(C(N)=S)ccn1 | Mycobacterium avium complex | 713 strains | agar | - | EC50 | >5 µg/mL
CCc1nc2ccc(Cl)cn2c1C(=O)NCc1ccc(N2CCSCC2)c(F)c1 | Mycobacterium intracellulare | ATCC 13950 | resazurin | - | MIC | 0.0156 µg/mL
COc1c(NC(=O)c2ccc(NC(=O)c3ccc(NC(=O)[C@H](Cc4cn[nH]n4)NC(=O)c4ccc(NC(=O)/C(C)=C/c5ccc(O)cc5)cc4)cn3)c(OC)c2O)ccc(C(=O)O)c1O | Mycobacterium luteus | 130.21 | resazurin | - | MIC | 0.031 µg/mL
Cc1ccc(NC(=O)NNC(=O)c2ccncc2)cc1 | Mycobacterium kansasii | My 235/80 | broth dilution | 7 d | MIC100 | 62.5 µM
Nc1ccc(S(=O)(=O)c2ccc(N)cc2)cc1 | Mycobacterium avium complex | DW20 | - | - | MIC | 64 µg/mL
Cc1ccc2nc(C)c(C(=O)NCc3ccc(C(F)(F)F)cc3)n2c1 | Mycobacterium intracellulare | ATCC 13950 | resazurin | - | MIC | <0.0078 µg/mL
CCc1cn(C2OC(CO)C(Br)C2F)c(=O)[nH]c1=O | Mycobacterium bovis BCG | - | resazurin | - | MIC80 | 100 µg/mL
CC[C@H]1OC(=O)[C@H](C)[C@@H](OC2C[C@@](C)(OC)[C@@H](O)[C@H](C)O2)[C@H](C)[C@@H](O[C@@H]2O[C@H](C)C[C@H](N(C)C)[C@H]2O)C(C)(O)C[C@@H](C)/C(=N\OCCCCCc2ccccc2)[C@H](C)[C@@H](O)[C@]1(C)O | Mycobacterium avium complex | 20039 (clarithromycin-susceptible) | - | - | MIC | 3.13 µg/mL
Cc1cn2c(C(=O)NCc3ccc(N4CCSCC4)c(F)c3)c(C)nc2s1 | Mycobacterium intracellulare | - | resazurin | - | MIC | <2 µM
O=C(NNC(=O)c1ccncc1)Nc1ccc(C(F)(F)F)cc1 | Mycobacterium kansasii | My 6509/96 | broth dilution | 7 d | MIC100 | 125 µM
CO[C@H]1/C=C/O[C@@]2(C)Oc3c(C)c(O)c4c(=O)c(c5oc6cc(N7CCN(CC(C)C)CC7)cc(=O)c6nc5c4c3=C2O)NC(=O)/C(C)=C\C=C\[C@H](C)[C@H](O)[C@@H](C)[C@@H](O)[C@@H](C)[C@H](OC(C)=O)[C@@H]1C | Mycobacterium avium complex | N-979 (HIV+) | - | - | MIC | 0.05 µg/mL
CC1(C)N=C(N)N=C(N)N1OCCCOc1cc(Cl)c(Cl)cc1Cl | Mycobacterium avium complex | DW7 | - | - | MIC | 0.5 µg/mL
CS(C)=O | Mycobacterium intracellulare | ATCC 13950 | resazurin | - | MIC | >10 µg/mL
CCCCCCCNC(=O)NNC(=O)c1ccncc1 | Mycobacterium kansasii | My 6509/96 | broth dilution | 14 d | MIC100 | 62.5 µM
COc1c(NC(=O)c2ccc(NC(=O)c3ccc(NC(=O)[C@H](Cc4cn[nH]n4)NC(=O)c4ccc(NC(=O)/C(C)=C/c5ccc(O)cc5)cc4)cc3Cl)c(OC)c2O)ccc(C(=O)O)c1O | Mycobacterium luteus | 130.21 | resazurin | - | MIC | 0.25 µg/mL
CCCCCCCCCCCCC(=O)O[C@H]1[C@H](C)OC(O[C@H]2[C@H](C)[C@@H](O[C@@H]3O[C@H](C)C[C@H](N(C)C)[C@H]3O)C(C)(O)C[C@@H](C)/C(=N\OCCCOc3ccccc3)[C@H](C)[C@@H](O)[C@](C)(O)[C@@H](CC)OC(=O)[C@@H]2C)C[C@@]1(C)OC | Mycobacterium avium complex | 20092 (clarithromycin-resistant) | - | - | MIC | >50 µg/mL
O=[N+]([O-])c1ccc(COc2ccc(-c3n[nH]c(C(F)(F)F)c3-c3ccc(Br)cc3)c(O)c2)cc1 | Mycobacterium marinum | - | visual reading | - | MIC | 12.5 µg/mL
O=C(NNC(=O)c1ccncc1)Nc1c(Cl)cc(Cl)cc1Cl | Mycobacterium kansasii | My 235/80 | broth dilution | 7 d | MIC100 | >125 µM
Cc1cn2c(C(=O)NCc3ccc(N4CCC(c5ccc(OC(F)(F)F)cc5)CC4)cc3)c(C)nc2s1 | Mycobacterium intracellulare | - | resazurin | - | MIC | <2 µM
NCCS | Mycobacterium abscessus | Clinical isolate MR313292 | broth dilution / visual reading | - | MIC100 | 125–250 µg/mL
CC[C@H]1OC(=O)[C@H](C)[C@@H](O[C@H]2C[C@@](C)(OC)[C@@H](OC(C)=O)[C@H](C)O2)[C@H](C)[C@@H](O[C@@H]2O[C@H](C)C[C@H](N(C)C)[C@H]2OC(=O)NNCc2ccccn2)C(C)(O)C[C@@H](C)/C(=N\OCCCC2CCCCC2)[C@H](C)[C@@H](O)[C@]1(C)O | Mycobacterium avium complex | 20039 (clarithromycin-susceptible) | - | - | MIC | 1.56 µg/mL
C[C@@H]1CN(c2c(F)c(N)c3c(=O)c(C(=O)O)cn(C4CC4)c3c2F)C[C@H](C)N1 | Mycobacterium avium complex | Isolate 90-1253 | - | - | MBC | 1 µg/mL
C[C@@H]1CN(c2c(F)c(N)c3c(=O)c(C(=O)O)cn(C4CC4)c3c2F)C[C@H](C)N1 | Mycobacterium avium complex | N-314 (HIV-) | - | - | MIC | 0.5 µg/mL
COc1ccc(-c2c(-c3ccc(O)cc3O)n[nH]c2C(F)(F)F)cc1 | Mycobacterium marinum | - | visual reading | - | MIC | >50 µg/mL
CO[C@H]1/C=C/O[C@@]2(C)Oc3c(C)c(O)c4c(O)c(c5c(c4c3C2=O)NC2(CCN(CC(C)C)CC2)N=5)=NC(=O)/C(C)=C\C=C\[C@H](C)[C@H](O)[C@@H](C)[C@@H](O)[C@@H](C)[C@H](OC(C)=O)[C@@H]1C | Mycobacterium avium complex | N-945 (HIV+) | - | - | MIC | 0.4 µg/mL
N[C@@H]1CONC1=O | Mycobacterium avium complex | 14 strains | agar | - | EC50 | <60 µg/mL
C[C@H]1[C@H](C)CC[C@]2(C(=O)O)CC[C@]3(C)C(CC[C@@H]4[C@@]5(C)C[C@H](O)CC(C)(C)[C@@H]5CC[C@]43C)[C@H]12 | Mycobacterium simiae | - | resazurin | - | MIC | >200 µg/mL
Cc1cn2c(C(=O)NCc3ccc(N4CCN(c5ccc(C(F)(F)F)cn5)CC4)c(F)c3)c(C)nc2s1 | Mycobacterium intracellulare | - | resazurin | - | MIC | <2 µM
CCCCCCCCc1ccc(NC(=O)NNC(=O)c2ccncc2)cc1 | Mycobacterium kansasii | My 235/80 | broth dilution | 21 d | MIC100 | >500 µM
CC[C@H]1OC(=O)[C@H](C)[C@@H](O[C@H]2C[C@@](C)(OC)[C@@H](OC(C)=O)[C@H](C)O2)[C@H](C)[C@@H](O[C@@H]2O[C@H](C)C[C@H](N(C)C)[C@H]2OC(=O)NN)C(C)(O)C[C@@H](C)/C(=N\OCCCC2CCCCC2)[C@H](C)[C@@H](O)[C@]1(C)O | Mycobacterium avium complex | 20092 (clarithromycin-resistant) | - | - | MIC | 6.25 µg/mL
O=C(NNC(=O)c1ccncc1)Nc1ccc(F)c(C(F)(F)F)c1 | Mycobacterium kansasii | My 235/80 | broth dilution | 21 d | MIC100 | 125 µM
COc1ccc(-c2[nH]ncc2-c2ccc(Cl)cc2)c(O)c1 | Mycobacterium marinum | - | visual reading | - | MIC | >50 µg/mL
CCCC(=O)O[C@H]1[C@H](C)OC(O[C@H]2[C@H](C)[C@@H](O[C@@H]3O[C@H](C)C[C@H](N(C)C)[C@H]3O)C(C)(O)C[C@@H](C)/C(=N\OCCCOc3ccccc3)[C@H](C)[C@@H](O)[C@](C)(O)[C@@H](CC)OC(=O)[C@@H]2C)C[C@@]1(C)OC | Mycobacterium avium complex | 20096 (clarithromycin-resistant) | - | - | MIC | 0.78 µg/mL
Cc1ccn2c(C(=O)NCc3ccc(N4CCN(c5ccc(C(F)(F)F)cc5)CC4)c(F)c3)c(C)nc2c1 | Mycobacterium intracellulare | - | resazurin | - | MIC | <2 µM
CC[C@H]1OC(=O)[C@H](C)[C@@H](O[C@H]2C[C@@](C)(OC)[C@@H](O)[C@H](C)O2)[C@H](C)[C@@H](O[C@@H]2O[C@H](C)C[C@H](N(C)C)[C@H]2O)[C@](C)(OC)C[C@@H](C)C(=O)[C@H](C)[C@@H](O)[C@]1(C)O | Mycobacterium avium complex | N-945 (HIV+) | - | - | MIC | 1 µg/mL

5 of the rows above, restated:

smiles | species | strain | method | conditions | measure | result
O=[N+]([O-])c1ccc(COc2ccc(-c3n[nH]c(C(F)(F)F)c3-c3ccc(Br)cc3)c(O)c2)cc1 | Mycobacterium marinum | - | visual reading | - | MIC | 12.5 µg/mL
Cc1cn2c(C(=O)NCc3ccc(N4CCN(c5ccc(C(F)(F)F)cn5)CC4)c(F)c3)c(C)nc2s1 | Mycobacterium intracellulare | - | resazurin | - | MIC | <2 µM
CC[C@H]1OC(=O)[C@H](C)[C@@H](O[C@H]2C[C@@](C)(OC)[C@@H](OC(C)=O)[C@H](C)O2)[C@H](C)[C@@H](O[C@@H]2O[C@H](C)C[C@H](N(C)C)[C@H]2OC(=O)NNCc2ccccn2)C(C)(O)C[C@@H](C)/C(=N\OCCCC2CCCCC2)[C@H](C)[C@@H](O)[C@]1(C)O | Mycobacterium avium complex | 20039 (clarithromycin-susceptible) | - | - | MIC | 1.56 µg/mL
CO[C@H]1/C=C/O[C@@]2(C)Oc3c(C)c(O)c4c(=O)c(c5oc6cc(N7CCN(CC(C)C)CC7)cc(=O)c6nc5c4c3=C2O)NC(=O)/C(C)=C\C=C\[C@H](C)[C@H](O)[C@@H](C)[C@@H](O)[C@@H](C)[C@H](OC(C)=O)[C@@H]1C | Mycobacterium avium complex | N-979 (HIV+) | - | - | MIC | 0.05 µg/mL
COc1ccc(-c2[nH]ncc2-c2ccc(Cl)cc2)c(O)c1 | Mycobacterium marinum | - | visual reading | - | MIC | >50 µg/mL

A number after MIC or MFC names an inhibition level or a share of isolates. ECn is the concentration giving n% inhibition of infection, replication or growth. An empty or dashed field is not shown. Two numbers with a dash give a range or band.